Activation data for one compound are collected here from PubChem BioAssay AID624414 (National Center for Advancing Translational Sciences (NCATS), 2012).

Sequences of proteins named here, by UniProt entry; tags and fusion partners are left off.
UniProt Q9GZU1, whole entry, looked up: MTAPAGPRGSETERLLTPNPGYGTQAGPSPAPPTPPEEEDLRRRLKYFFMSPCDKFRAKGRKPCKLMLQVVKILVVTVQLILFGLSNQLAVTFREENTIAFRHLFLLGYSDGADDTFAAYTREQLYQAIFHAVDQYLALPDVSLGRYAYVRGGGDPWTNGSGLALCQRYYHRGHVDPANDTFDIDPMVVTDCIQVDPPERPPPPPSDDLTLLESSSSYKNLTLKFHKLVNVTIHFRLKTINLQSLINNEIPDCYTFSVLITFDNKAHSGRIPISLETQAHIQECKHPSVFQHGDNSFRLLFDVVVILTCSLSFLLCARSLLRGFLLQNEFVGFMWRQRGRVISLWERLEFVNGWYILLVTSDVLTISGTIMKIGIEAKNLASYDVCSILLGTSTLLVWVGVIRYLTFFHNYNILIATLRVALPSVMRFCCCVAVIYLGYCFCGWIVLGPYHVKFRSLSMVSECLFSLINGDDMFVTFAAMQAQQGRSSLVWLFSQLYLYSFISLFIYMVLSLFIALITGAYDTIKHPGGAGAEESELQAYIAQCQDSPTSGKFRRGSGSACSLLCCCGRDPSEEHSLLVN

Structures are written as SMILES. The entries are a selection whose mix differs from that of the whole data set. Active and inactive are the calls of the source. No stated cut-off is given here; in the data, active means activation above about 50%; inconclusive means mostly about 30% to 49%; inactive means weaker than that.

This assay concerns the target Mucolipin-1 (Homo sapiens) (UniProt Q9GZU1). Nature of the assay: qHTS for Agonists of the Human Mucolipin Transient Receptor Potential 1 (TRPML1). Further: 0% is about no effect. To be noted: TRPML1-expressing cells, Ca2+ dye fluorescence, FDSS; hits give high values. An excerpt: Mutations of human Mucolipin transient receptor potential 1 (TRPML1) cause type IV mucolipidosis (ML4), a devastating neurodegenerative disease in young children. […] Currently, there is no treatment for ML4. […] Under physiological conditions, TRPMLs regulate membrane trafficking by transducing information about PI(3,5)P2 levels into changes in juxtaorganellar Ca2+, thereby triggering membrane fusion/fission events in the late endocytic pathways (endolysosomal trafficking). In addition, TRPML1 mediates release of Fe2+ from late endosomes and lysosomes, which is essential for cellular iron metabolism. Thus, impaired ion (Ca2+ and Fe2+) homeostasis underlies lysosomal dysfunction and ML4 phenotypes. In ML4 cells, the problem is twofold. First, defective Ca2+-dependent membrane trafficking due to TRPML1-deficiency causes accumulation of lipids and other bio-materials in the lysosome. […]
TRPML1-DL cells are dissociated from flasks, counted and, brought up to a density of 500,000 cells per mL of media containing a 1X Tet inducer. […] The assay plate is read on the FDSS using the following protocol: 10 second baseline read, 23nL of compounds and controls are added using 1536 pintool, agonist read for 110 seconds, 1 uL EC80 addition (4uM final 54-4 diluted in media), antagonist read for 110 seconds.
For `O=[N+]([O-])c1cc(Oc2ccc([N+](=O)[O-])cc2C(F)(F)F)cc([N+](=O)[O-])c1`, the activation was active: 94.9%.
